Results of unrelated studies side by side (data: NIAID ChemDB).

All rows: growth or infection tests; species: Aspergillus niger; endpoint: inhibition

Blank or dashed fields: not listed here.

smiles | read by | strain or isolate | dose | value
COC(C)/C=C/c1coc2cc(O)c(O)cc2c1=O | absorbance |  | 200 µg/mL | 0%
COc1ccccc1-[n+]1noc([O-])c1C(=O)CSc1nc2ccccc2[nH]1 | agar diffusion |  | 20 µg/mL | 0%
Cc1cc(C=Nc2ccc(N=Cc3cc(C)cc(/C=N/Nc4nc5ccccc5s4)c3O)cc2)c(O)c(/C=C/Nc2nc3ccccc3s2)c1 | turbidity |  | 10 µg/mL | 7.55%
COc1ccc(-[n+]2noc([O-])c2C(=O)CSc2nc3ccccc3[nH]2)cc1 | agar diffusion |  | 20 µg/mL | 0%
CC(=O)CC(O)c1coc2cc(O)c(O)c(C(=O)O)c2c1=O | absorbance |  | 200 µg/mL | 59.95%
COc1cccc(C2=NN(c3ccccc3)C(c3ccc(SC)cc3)C2)c1 | broth dilution | NCIM 596 | 2000 µg/mL | 90.14%
O=S(=O)(O)O/N=C(\Cc1cn(S(=O)(=O)O)c2ccccc12)SC1OC(CO)C(O)C(O)C1O |  | ATCC 1015 | 400 µg/mL | 59.1%
Cc1ccc(C)c(-[n+]2noc([O-])c2C(=O)CSc2nc3ccccc3[nH]2)c1 | agar diffusion |  | 20 µg/mL | 0%
CS(=O)(=O)c1ccc(C2CC(c3ccccc3)=NN2c2ccccc2)cc1 | broth dilution | NCIM 596 | 2000 µg/mL | 47.2%
Cc1ccc(-[n+]2noc([O-])c2C(=O)CSc2nc3ccccc3[nH]2)cc1Cl | agar diffusion |  | 20 µg/mL | 0%
CSc1ccc(C2CC(c3cccc(Br)c3)=NN2c2ccccc2)cc1 | broth dilution | NCIM 596 | 2000 µg/mL | 64.62%
C/C(=N\NC(=S)Nc1cccc(Cl)c1)c1c(O)ccc2c(C)cc(=O)oc12 | agar diffusion / agar |  | 50 µg/mL | 74.49%
Cc1ccccc1-[n+]1noc([O-])c1C(=O)CSc1nc2ccccc2[nH]1 | agar diffusion |  | 20 µg/mL | 0%
CS(=O)(=O)c1ccc(C2CC(c3ccc(Cl)cc3)=NN2c2ccccc2)cc1 | broth dilution | NCIM 596 | 2000 µg/mL | 97.54%
N#C/C(=C1/Nc2ccccc2C1=O)c1c[nH]c2ccccc12 |  | ATCC 1015 | 400 µg/mL | 59.7%
O=C(CSc1nc2ccccc2[nH]1)c1c([O-])on[n+]1-c1ccc(Br)cc1 | agar diffusion |  | 20 µg/mL | 0%
CSc1ccc(C2CC(c3ccc(Br)cc3)=NN2c2ccccc2)cc1 | broth dilution | NCIM 596 | 2000 µg/mL | 88.54%
O=C(O)CC(=O)OCC1OC(Oc2c[nH]c3ccccc23)C(O)C(=O)C1O |  | ATCC 1015 | 400 µg/mL | 47.7%

Again, the opening 2 rows:

smiles,read by,strain or isolate,dose,value
COC(C)/C=C/c1coc2cc(O)c(O)cc2c1=O,absorbance,,200 µg/mL,0%
COc1ccccc1-[n+]1noc([O-])c1C(=O)CSc1nc2ccccc2[nH]1,agar diffusion,,20 µg/mL,0%

Neighbouring rows are from separate reports. Percent inhibition refers to the dose given; in toxicity tests it is the harm to the cells.